# Assay results published in patent US10978218B2, “Hydrogel network” (dated 2021).
# Biological target: αHL mutant 2N (E111N/K147N) (Staphylococcus aureus, UniProt P09616, E137N/K173N)
substance,measurement,setting,value
γ-cyclodextrin,residence time of γCD within the pore,"+20 mV, average±S.D., n=562",146 ± 4 ms
same,block of the amplitude of the open pore current,"γCD 50 μM (trans), αHL 2N (cis), n=562 events, two independent experiments",64%
